Anti-infective test results gathered from many reports (values: NIAID ChemDB through PubChem).

Shared fields: growth or infection tests; organism: Candida albicans

Percent inhibition refers to the dose given; in toxicity tests it is the harm to the cells.

structure,strain or isolate,read by,setting,read-out,dose,value
C[C@@H](N1CCN(Cc2cn(Cc3ccc(C(F)(F)F)cc3)c3ccccc23)CC1)[C@](O)(Cn1cncn1)c1ccc(F)cc1F,ATCC MYA-1003,resazurin,-,MIC80,-,64 µg/mL
CC(C)(O)c1cn(-c2ccc([N+](=O)[O-])cc2)nn1,URM 4124,broth dilution,-,inhibition,2048 µg/mL,0%
OC(CN1CCN(c2ccc(OCc3ccncc3)cc2)CC1)(Cn1cncn1)c1ccc(F)cc1F,304121,-,-,MIC80,-,2 µg/mL
C[C@@H](N1CCN(Cc2cn(Cc3ccc(Cl)cc3Cl)c3ccc(C#N)cc23)CC1)[C@](O)(Cn1cncn1)c1ccc(F)cc1F,ATCC 90028,resazurin,-,MIC80,-,0.25 µg/mL
Nc1[nH]c(=O)ncc1F,10 isolates,broth dilution,pH 7,EC90,-,2 µg/mL
C[C@@H](N1CCN(Cc2cn(-c3ccc(F)cc3)c3cc(Cl)ccc23)CC1)[C@](O)(Cn1cncn1)c1ccc(F)cc1F,ATCC 36082,resazurin,-,MIC80,-,0.125 µg/mL
CC[C@@H]([C@H](C)O)n1ncn(-c2ccc(N3CCN(c4ccc(OC[C@@H]5CO[C@@](Cn6cncn6)(c6ccc(F)cc6F)C5)cc4)CC3)cc2)c1=O,15 isolates,broth dilution,pH 6,EC90,-,0.03 µg/mL
C[C@@H](N1CCN(Cc2cn(Cc3ccc(Cl)cc3)c3c(F)cccc23)CC1)[C@](O)(Cn1cncn1)c1ccc(F)cc1F,ATCC MYA-1003,resazurin,-,MIC80,-,8 µg/mL
Cc1ccc(-n2cc(C(C)(C)O)nn2)cc1C,URM 4387,broth dilution,-,inhibition,2048 µg/mL,0%
C=CCc1ccc(Cn2cc(CN3CCN([C@H](C)[C@](O)(Cn4cncn4)c4ccc(F)cc4F)CC3)c3ccccc32)cc1,ATCC 36082,resazurin,-,MIC80,-,16 µg/mL
CCC(C)n1ncn(-c2ccc(N3CCN(c4ccc(OC[C@H]5CO[C@](Cn6cncn6)(c6ccc(Cl)cc6Cl)O5)cc4)CC3)cc2)c1=O,12 isolates,-,-,MFC50,-,>8 µg/mL
Clc1ccccc1C(c1ccccc1)(c1ccccc1)n1ccnc1,10 isolates,broth dilution,pH 7,EC90,-,0.03 µg/mL
C=CCc1ccc(OC)c(OC)c1,2780,turbidity,-,MIC90,-,345 µg/mL
CC(C)(O)c1cn(-c2ccc3ccccc3c2)nn1,URM 4127,broth dilution,-,inhibition,2048 µg/mL,0%
C[C@@H](N1CCN(Cc2cn(Cc3ccc(Cl)cc3Cl)c3cc(Cl)ccc23)CC1)[C@](O)(Cn1cncn1)c1ccc(F)cc1F,ATCC MYA-1003,resazurin,-,MIC80,-,>128 µg/mL
C[C@@H](c1ncncc1F)[C@](O)(Cn1cncn1)c1ccc(F)cc1F,15 isolates,broth dilution,pH 4,EC90,-,0.03 µg/mL
NCCCC[C@H](NC(=O)[C@H](Cc1c[nH]c2ccccc12)NC(=O)[C@H](CCCCN)NC(=O)[C@@H](N)CCCCN)C(=O)O,ATCC 10231,-,-,inhibition,12.5 µM,0%
CC(C)N=C(N)c1ccc2nc(-c3ccc4c(c3)Cc3cc(-c5nc6ccc(C(N)=NC(C)C)cc6[nH]5)ccc3-4)[nH]c2c1,Isolate CA1247,-,-,MFC,-,3.12 µg/mL
CC(C)(O)c1cn(-c2cccc3ccccc23)nn1,URM 4125,broth dilution,-,inhibition,2048 µg/mL,0%

The last 3 rows once more:

structure,strain or isolate,read by,setting,read-out,dose,value
NCCCC[C@H](NC(=O)[C@H](Cc1c[nH]c2ccccc12)NC(=O)[C@H](CCCCN)NC(=O)[C@@H](N)CCCCN)C(=O)O,ATCC 10231,-,-,inhibition,12.5 µM,0%
CC(C)N=C(N)c1ccc2nc(-c3ccc4c(c3)Cc3cc(-c5nc6ccc(C(N)=NC(C)C)cc6[nH]5)ccc3-4)[nH]c2c1,Isolate CA1247,-,-,MFC,-,3.12 µg/mL
CC(C)(O)c1cn(-c2cccc3ccccc23)nn1,URM 4125,broth dilution,-,inhibition,2048 µg/mL,0%

An empty or dashed field is not shown. Conditions beyond the fields shown may differ between rows. ECn is the concentration giving n% inhibition of infection, replication or growth. A number after MIC or MFC names an inhibition level or a share of isolates.